# Assay results from patent US5583115A, “Dialkyltiacumicin compounds” (Abbott Laboratories, priority 1995, dated 1996).
# Legend:
# Enterococcus faecium = experiment: MIC agar dilution, aerobic and facultative bacteria; settings: Table 1
# Streptococcus agalactiae = experiment: as above; settings: Table 1
compound,measurement,setting,value
"CCc1c(Cl)c(OC)c(Cl)c(OC)c1C(=O)OC1C(C)OC(OCC2=CC=CCC(O)C(C)=CC(CC)C(OC3OC(C)(C)C(OC(=O)C(C)C)C(O)C3O)C(C)=CC(C)=CCC(C(C)O)OC2=O)C(OC)C1O (centres unmarked) [Example 2, 3""', 5""'-Di-O-methyltiacumicin B]",activity relative to tiacumicin B,Enterococcus faecium,substantially less active than the starting material tiacumicin B
same,activity relative to tiacumicin B,Streptococcus agalactiae,substantially less active than the starting material tiacumicin B
